{
  "source": "the supplement of paper PMC12637763",
  "binders": {"B1": {"name": "HIV-1 Env, rebound clone, placebo arm (protein)", "chain": "MKVKGTRMNWQHLWRWGTLMLGLVIICKASNTNLWVTVYYGVPAWEDADTTLFCASDAKAYSTEKHNVWATHACVPTDPNPQEISLPNVTENFDMWKNNMVEQMHEDIISLWDESLKPCVKLTPLCVTLTCSDINITNSSNTTITNGNNSMVDPEEIKNCTFNMTTEIIDKKKKEFALFYKLDIVQINNGNDSKDYRLINCNVSTIKQACPKVSFEPIPIHYCAPAGFAILKCKDKNFNGTGPCKNVSTVQCTHGIKPVVSTQLLLNGSLAEEDIVIRTKNITDNGNNIIVHLNESITINCTRPNNNTRKSIHLGQGQAFYATGAIIGDIRQAHCNVSGSQWINMIKRVAGKLKGVFSKNVTFNSSAGGDLEITTHSFNCGGEFFYCNTSNLFNSSILTSNNTNENITLPCKIRQIVRMWQTVGQAMYAPPIAGSIICTSNITGLILTRDGGSNETNGTDTFRPGGGNMKDNWRSELYKYKVVRIKPLGIAPTKARRRVVGREKRAIGVLGAALLGFLGTAGSTMGAASITLTVQVRQLLSGIVQQQSNLLRAIEAQQHLLQLTVWGIKQLQARVLAVERYLRDQQLLGIWGCSGKLICTTNVPWNASWSNKSYEEIWDNMTWIQWDREIDNYTQLIYSLIEESQNQQEKNEQDLLALDKWTSLWSWFDISNWLWYIRIFIIIVGGLIGLRIVFAVLSIVNRVRQGYSPLSLQTLLPHPPEADRPGEIEEGGGEQGRTRSIRLVNGFLALAWDDLRNLCLFLYHHLRDFILTAARTVETLGHRGWEILKYLGNLLCYWGQELKNSVITLLDTTAIAVGNWTDRFIELGQRVVRAVLHIPRRVRQGLERALL"}, "B2": {"name": "HIV-1 Env, rebound clone, placebo arm (protein)", "chain": "B1 chain with D274G"}, "B3": {"name": "HIV-1 Env, rebound clone, placebo arm (protein)", "chain": "B1 chain with R678K, E727K"}, "B4": {"name": "HIV-1 Env, rebound clone, placebo arm (protein)", "chain": "B1 chain with P720S"}, "B5": {"name": "HIV-1 Env, rebound clone, placebo arm (protein)", "chain": "MKVKGTRMNWQHLWRWGTLMLGLVIICKASNTNLWVTVYYGVPAWEDADTTLFCASDAKAYSTEKHNVWATHACVPTDPNPQEISLPNVTENFDMWKNNMVEQMHEDIISLWDESLKPCVKLTPLCVTLTCSDINITNSSNTTITNGNNSMVDPEEIKNCTFNMTTEIIDKKKKEFALFYKLDIVQINNGKDYRLINCNVSTIKQACPKVSFEPIPIHYCAPAGFAILKCKDKNFNGTGPCKNVSTVQCTHGIKPVVSTQLLLNGSLAEEDIVIRTKNITDNGNNIIVHLNESITINCTRPNNNTRKSIHLGQGQAFYATGAIIGDIRQAHCNVSGSQWINMIKRVAGKLKGVFSKNVTFNSSAGGDLEITTHSFNCGGEFFYCNTSNLFNSSILTSNNTNENITLPCKIRQIVRMWQTVGQAMYAPPIAGSIICTSNITGLILTRDGGSNETNGTDTFRPGGGNMKDNWRSELYKYKVVRIKPLGIAPTKARRRVVGREKRAIGVLGAALLGFLGTAGSTMGAASITLTVQVRQLLSGIVQQQSNLLRAIEAQQHLLQLTVWGIKQLQARVLAVERYLRDQQLLGIWGCSGKLICTTNVPWNASWSNKSYEEIWDNMTWIQWDREIDNYTQLIYSLIEESQNQQEKNEQDLLALDKWTSLWSWFDISNWLWYIRIFIIIVGGLIGLRIVFAVLSIVNRVRQGYSPLSLQTLLPHPPEADRPGEIEEGGGEQGRTRSIRLVNGFLALAWDDLRNLCLFLYHHLRDFILTAARTVETLGHRGWEILKYLGNLLCYWGQELKNSVITLLDTTAIAVGNWTDRFIELGQRVVRAVLHIPRRVRQGLERALL"}, "B6": {"name": "HIV-1 Env, rebound clone, placebo arm (protein)", "chain": "MKVKGTRMNWQHLWRWGTLMLGLVIICKASNTNLWVTVYYGVPAWEDADTTLFCASDAKAYSTEKHNVWATHACVPTDPNPQEISLPNVTENFDMWKNNMVEQMHEDIISLWDESLKPCVKLTPLCVTLTCSNTTITNGNNSMVDPEEIKNCTFNMTTEIIDKKKKEFALFYKLDIVQINNGNDSKDYRLINCNVSTIKQACPKVSFEPIPIHYCAPAGFAILKCKDKNFNGTGPCKNVSTVQCTHGIKPVVSTQLLLNGSLAEEDIVIRTKNITDNGNNIIVHLNESITINCTRPNNNTRKSIHLGQGQAFYATGAIIGDIRQAHCNVSGSQWINMIKRVAGKLKGVFSKNVTFNSSAGGDLEITTHSFNCGGEFFYCNTSNLFNSSILTSNNTNENITLPCKIRQIVRMWQTVGQAMYAPPIAGSIICTSNITGLILTRDGGSNETNGTDTFRPGGGNMKDNWRSELYKYKVVRIKPLGIAPTKARRRVVGREKRAIGVLGAALLGFLGTAGSTMGAASITLTVQVRQLLSGIVQQQSNLLRAIEAQQHLLQLTVWGIKQLQARVLAVERYLRDQQLLGIWGCSGKLICTTNVPWNASWSNKSYEEIWDNMTWIQWDREIDNYTQLIYSLIEESQNQQEKNEQDLLALDKWTSLWSWFDISNWLWYIRIFIIIVGGLIGLRIVFAVLSIVNRVRQGYSPLSLQTLLPHPPEADRPGEIEEGGGEQGRTRSIRLVNGFLALAWDDLRNLCLFLYHHLRDFILTAARTVETLGHRGWEILKYLGNLLCYWGQELKNSVITLLDTTAIAVGNWTDRFIELGQRVVRAVLHIPRRVRQGLERALL"}},
  "note": "Positions count from the first letter of the chain named. The list shows a part of the results. Env chains of viruses from a treatment-interruption trial, translated from the printed DNA. IC50 / IC80 of two broadly neutralizing antibodies; lower = more sensitive virus; >50 µg/ml means not reached and <0.001 µg/ml is below the lowest dose. No active / inactive call.",
  "data": [
    {"target": "antibody 10-1074", "experiment": "neutralization IC50; higher = virus less sensitive to the antibody", "method": "(§1)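 Pseudovirus bearing the Env chain mixed with antibody, from 50 µg/ml in fivefold dilutions, on TZM-bl reporter cells, in duplicate.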", "units": {"neutralization IC50": "µg/mL"}, "values": [
      {"binder": "B1", "neutralization IC50": 0.012},
      {"binder": "B2", "neutralization IC50": 0.003},
      {"binder": "B3", "neutralization IC50": 0.013},
      {"binder": "B4", "neutralization IC50": 0.012},
      {"binder": "B5", "neutralization IC50": 0.01},
      {"binder": "B6", "neutralization IC50": 0.006}
    ]},
    {"target": "antibody 3BNC117", "experiment": "neutralization IC50; higher = virus less sensitive to the antibody", "method": "as §1", "units": {"neutralization IC50": "µg/mL"}, "values": [
      {"binder": "B1", "neutralization IC50": 0.141},
      {"binder": "B2", "neutralization IC50": 0.223},
      {"binder": "B3", "neutralization IC50": 0.158},
      {"binder": "B4", "neutralization IC50": 0.208},
      {"binder": "B5", "neutralization IC50": 0.178},
      {"binder": "B6", "neutralization IC50": 0.163}
    ]},
    {"target": "antibody 10-1074", "experiment": "neutralization IC80; higher = virus less sensitive to the antibody", "method": "as §1", "units": {"neutralization IC80": "µg/mL"}, "values": [
      {"binder": "B1", "neutralization IC80": 0.026},
      {"binder": "B2", "neutralization IC80": 0.024},
      {"binder": "B3", "neutralization IC80": 0.036},
      {"binder": "B4", "neutralization IC80": 0.026},
      {"binder": "B5", "neutralization IC80": 0.024},
      {"binder": "B6", "neutralization IC80": 0.013}
    ]},
    {"target": "antibody 3BNC117", "experiment": "neutralization IC80; higher = virus less sensitive to the antibody", "method": "as §1", "units": {"neutralization IC80": "µg/mL"}, "values": [
      {"binder": "B1", "neutralization IC80": 0.5},
      {"binder": "B2", "neutralization IC80": 0.584},
      {"binder": "B3", "neutralization IC80": 0.512},
      {"binder": "B4", "neutralization IC80": 0.586},
      {"binder": "B5", "neutralization IC80": 0.462},
      {"binder": "B6", "neutralization IC80": 0.771}
    ]}
  ]
}
